Legend:
[1] = molecular target: Spike glycoprotein [668-1255] (SARS-CoV, UniProt P59594); test: ASSAY_NAME: No assay is provided DESCRIPTION: This is a review article.
[2] = molecular target: Replicase polyprotein 1ab (Severe acute respiratory syndrome coronavirus, UniProt P0C6X7); test: as above

Compound	EC50 [1] [µM]	IC50 [2] [µM]
O=c1cc(-c2ccc(O)c(O)c2)oc2cc(O)cc(O)c12	10.6	–
O=C(OC[C@H]1O[C@@H](OC(=O)c2cc(O)c(O)c(O)c2)[C@H](OC(=O)c2cc(O)c(O)c(O)c2)[C@H](OC(=O)c2cc(O)c(O)c(O)c2)[C@@H]1O)c1cc(O)c(O)c(O)c1	4.4	–
O=C[C@H](Cc1c[nH]cn1)NC[C@H]1C[C@H]2CCCC[C@@H]2CN1C(=O)c1ccc(-c2ccccc2)cc1	–	240
O=C[C@H](Cc1c[nH]cn1)NC[C@@H]1C[C@@H]2CCCC[C@H]2CN1C(=O)c1ccc(-c2ccccc2)cc1	–	108
O=C[C@H](Cc1c[nH]cn1)NC[C@@H]1C[C@@H]2CCCC[C@H]2CN1C(=O)c1ccccc1	–	68

Reference: BindingDB's records for 32852058
